Assay results: patent US8729034B2, “Pharmaceutical composition having virucidal and spermicidal activity” (priority 2007, dated 2014)

Test system: Female cycling rats
Assay: Intra uterine application of Ac-B and IUI in rat, fertilization outcome
Format: in vivo, Sprague-Dawley rats
Conditions: 1.75 mg Ac-B intrauterine
Protocol: Female cycling rats weighing 180-200 g were obtained from the institutional Animal House. The duplex nature of the rat uterus with separate cervical canal helped us to organize both control and experimental sets in the same animal with exposure to identical physiological milieu.
On the day of pro-estrous, both horns of the uterus were exposed by mid-ventral incision of the abdomen under light anesthesia following intra peritoneal injection of Ketamin at a concentration of 100 mg/kg body weight, supported by inhalation of anesthetic-ether, during 17.00-17.30 hours of the day. IUI was performed by injecting 50 microliters of sperm suspensions with varied concentration (25-30, 40-50, and 50-55 million sperms/ml) through a 24 G needle fitted onto a tuberculin syringe in the cervical end of the uterine lumen of each horn. The muscle in the injection site was held tightly for a while to prevent leakage through the puncture. Prior to IUI, each rat received a injection of 1.75 mg Ac-B in 50 microliters BWW medium in the left horn and simple BWW medium in the right horn. The opened abdominal muscle and skin layers were properly sutured by suturing silk thread. The outer most skin layers were further fixed by metal clips. The wound was properly cleaned with antiseptic lotions. Each operated animal was housed individually in fresh cage for collection and counting of unfertilized oocytes, two celled embryos, and fragmented bodies. […] The abdomen was opened and each of the fallopian tubes was collected carefully. The content of each tube was flushed out by introducing BWW medium into each tube with the help of a 30 G hypodermic needle in a watch glass. The flushed out lavage was examined under an inverted phase contrast microscope (Leitz, Labovert, ×100) to score the number of recovered fertilized/unfertilized eggs from individual fallopian tube.

## Acaciaside-B [Ac-B]
Sperm count 25-30 million/ml (N = 3)
  Total (eggs recovered), treated horn: 17
Sperm count 40-50 million/ml (N = 4)
  Total (eggs recovered), treated horn: 19
Sperm count 50-55 million/ml (N = 4)
  Total (eggs recovered), treated horn: 16
